Source: the supplement of paper PMC3578754

What was measured:
Test in all cases: fold change of IC50 against reference virus; higher = more resistant
didanosine = compound: O=c1[nH]cnc2c1ncn2[C@H]1CC[C@@H](CO)O1 [didanosine]
Experimental: (§1)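 Cell-culture drug susceptibility tests of virus bearing the reverse transcriptase of each isolate, gathered from many studies.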

stavudine = compound: Cc1cn([C@H]2C=C[C@@H](CO)O2)c(=O)[nH]c1=O [stavudine]
Experimental: as §1

zalcitabine = compound: Nc1ccn([C@H]2CC[C@@H](CO)O2)c(=O)n1 [zalcitabine]
Experimental: as §1

abacavir = compound: Nc1nc(NC2CC2)c2ncn([C@H]3C=C[C@@H](CO)C3)c2n1 [abacavir]
Experimental: as §1

nevirapine = compound: Cc1ccnc2c1NC(=O)c1cccnc1N2C1CC1 [nevirapine]
Experimental: as §1

delavirdine = compound: CC(C)Nc1cccnc1N1CCN(C(=O)c2cc3cc(NS(C)(=O)=O)ccc3[nH]2)CC1 [delavirdine]
Experimental: as §1

efavirenz = compound: O=C1Nc2ccc(Cl)cc2[C@@](C#CC2CC2)(C(F)(F)F)O1 [efavirenz]
Experimental: as §1

tenofovir = compound: C[C@H](Cn1cnc2c(N)ncnc21)OCP(=O)(O)O [tenofovir]
Experimental: as §1

zidovudine = compound: Cc1cn([C@H]2C[C@H](N=[N+]=[N-])[C@@H](CO)O2)c(=O)[nH]c1=O [zidovudine]
Experimental: as §1

Test System | fold change of IC50 against reference virus (didanosine) | fold change of IC50 against reference virus (stavudine) | fold change of IC50 against reference virus (zalcitabine) | fold change of IC50 against reference virus (abacavir) | fold change of IC50 against reference virus (nevirapine) | fold change of IC50 against reference virus (delavirdine) | fold change of IC50 against reference virus (efavirenz) | fold change of IC50 against reference virus (tenofovir) | fold change of IC50 against reference virus (zidovudine)
HIV-1 isolate 188 (reverse transcriptase changes: D67N K70R K122E Q174R D177E I195M G196E Q207G F214L K219Q A288S, study 15) | 0.9 | 1.1 | 1.1 | 1 | 0.3 | 0.7 | 0.4 | 1.5 | 12
HIV-1 isolate 1479 (reverse transcriptase changes: S48T D67N T69N K70R K122E M184V G196E T215F D218E K219Q V245M A272P A288T E297K E312D, study 121) | 1.9 | 1.9 | 2.3 | 6.1 | 0.5 | 0.7 | 0.5 | 1.1 | 9.9
HIV-1 isolate 784 (reverse transcriptase changes: D67N K70R A98S K122E D123E D177E I178L V179I G190A T215F K219Q V245E K277R T286A E297K K311R, study 121) | 1.4 | 2.4 | 1.4 | 3.4 | 85 | 0.4 | 4.3 | 3 | 154
HIV-1 isolate 1247 (reverse transcriptase changes: M41L V90I H96R K103N I135V T139R Q161P Y181C M184V G196E T200A, study 121) | 1.4 | 0.6 | 1.1 | 1.6 | ≥ 400 | ≥ 250 | 46 | 0.4 | 0.5
HIV-1 isolate 477 (reverse transcriptase changes: T39A M41L E44D D67N K70R K122E I142V M184V I202V L210W R211K T215Y K219Q A288T, study 121) | 1.8 | 2.9 | 2.3 | 7.7 | 0.7 | 0.7 | 0.6 | 2.5 | 139
HIV-1 isolate 1273 (reverse transcriptase changes: D67N T69D K70R K122E Y181C F214L T215F K219Q F227L A272P K277R, study 138) | 0.8 | 3.2 | 0.8 | 1.6 | ≥ 400 | 1 | 10 | 2.1 | 83.3
HIV-1 isolate 1526 (reverse transcriptase changes: V35M T39A M41L K43E D67N V118I D123E D177E M184V G196E E203K Q207E H208Y L210W R211K T215Y K223Q A272P T286A E297R K311R, study 121) | 2.1 | 4.1 | 3.3 | 7.4 | 0.3 | 0.1 | 0.2 | 1.5 | 24
HIV-1 isolate 1299 (reverse transcriptase changes: I5S K20R E28K K32E V35R M41L E44D D67N K103N D123E I135M K166R D177E M184V G196E T200A L210W R211K T215Y V245E E297K, study 15) | 2 | 2.1 | 2.1 | 6.5 | 55 | 14 | 20 | 2.5 | 221
HIV-1 isolate 341 (reverse transcriptase changes: V35T M41L K49R V60I D67N T69G A158S M184V G196E L210W T215Y Q278H T286A E297K, study 121) | 1.8 | 2 | 2.7 | 6.9 | 0.5 | 0.3 | 0.2 | 1.2 | 9.9
HIV-1 isolate 451 (reverse transcriptase changes: R83K K103N V108I I135V T139K E169D Y181C G190A T200A Q207E T215Y V245Q, study 121) | 0.9 | 1.2 | 0.7 | 1.2 | ≥ 400 | ≥ 250 | 700 | 1.6 | 15
HIV-1 isolate 677 (reverse transcriptase changes: D67N T69D K70R V90I K103N K122E I135T S162A T215F K219Q L228H V245T D250E, study 15) | 1.4 | 1.8 | 1.8 | 3.4 | 124 | 800 | 43 | 3.2 | 281
HIV-1 isolate 1565 (reverse transcriptase changes: K103N K122E M184V F214L A272P K277R, study 138) | 1.3 | 0.7 | 1.5 | 2.7 | 51.8 | 63.1 | 30.4 | 0.5 | 0.5
HIV-1 isolate 220 (reverse transcriptase changes: V35Q T39A D67N S68G K70R D123E I135T I142V K166R D177E G196E E203D T215F K219E A272P K277R L283I A288T E297K, study 121) | 1.5 | 2.3 | 1.4 | 3.8 | 5.3 | 3 | 2.8 | 5.2 | 464
HIV-1 isolate 662 (reverse transcriptase changes: V35I M41L K43Q D67G A98S K102Q D121Y K122E I135T V179E Y181C M184V I195M T200A L210W T215Y K223Q L228R V245M, study 121) | 1.7 | 2 | 2.2 | 4.8 | 280 | 15 | 3.7 | 0.8 | 1.9
HIV-1 isolate 353 (reverse transcriptase changes: V60I F116Y K122E D123E I135V I142V Q151M T200A I202V F214L V245M K277R Q278E T286A I293V E297T, study 121) | 8.1 | 7.1 | 10 | 5 | 1.3 | 1.2 | 1.1 | 1.4 | 9.5
HIV-1 isolate 1391 (reverse transcriptase changes: T39A K49R K65R Y115F V118I K122E Y127C I135T E169D Y181C F214L L228H A288S, study 121) | 1.8 | 0.9 | 1.8 | 6 | 52 | 17 | 0.5 | 1.5 | 0.4
HIV-1 isolate 756 (reverse transcriptase changes: R83K K103N I135V E169D Y181C G190A T200A Q207E T215Y K238N V245E, study 121) | 0.9 | 1.5 | 0.7 | 1.2 | ≥ 400 | ≥ 250 | 700 | 0.9 | 3
HIV-1 isolate 803 (reverse transcriptase changes: D67G S68G L74V Y115F K122Q D123E I135T I142V D177E M184V V189I G190E T200A T215F K219E V245E E297R, study 15) | 1.9 | 1.3 | 1.3 | 16 | ≥ 400 | 43 | 800 | 0.7 | 2.2
HIV-1 isolate 1015 (reverse transcriptase changes: V35T M41L R83K D177E I178M M184V T215Y V245M E248D D250E A272P T286A, study 121) | 1.6 | 1.6 | 1.8 | 3.8 | 0.7 | 0.5 | 0.5 | 1.3 | 6.3
HIV-1 isolate 951 (reverse transcriptase changes: E36G M41L K43Q D67N I135T M184V L210W R211D T215Y V245M A272P K277R, study 121) | 2.3 | 2.3 | 2.4 | 7.3 | 0.7 | 0.3 | 0.4 | 2.6 | 64
HIV-1 isolate 1465 (reverse transcriptase changes: M41L K43N E44D D67N T69D A98S K103N V118I K122E I135V E138Q S162C G196E E203K Q207E H208Y L210W R211K T215Y V245A Q278H T286A P294S, study 121) | 2.3 | 6.7 | 1.8 | 8.4 | 26 | 9.2 | 5.1 | 5.9 | 2400
HIV-1 isolate 549 (reverse transcriptase changes: M41L D67N V118I K122E L210W F214L T215Y A272P K277R, study 138) | 2.3 | 6.9 | 2.2 | 6.6 | 0.3 | 0.1 | 0.1 | 5.6 | 2400
HIV-1 isolate 80 (reverse transcriptase changes: K102Q D123E R211K A272P K277R T286A P294S E297R, study 121) | 0.9 | 0.8 | 0.8 | 0.6 | 0.6 | 0.3 | 0.4 | 0.6 | 0.7
HIV-1 isolate 1622 (reverse transcriptase changes: K103N I142V M184V R211G F214L A272P T286A K311R V317A Q334Y, study 15) | 1.3 | 0.8 | 1.6 | 3.4 | 48 | 40 | 19 | 0.6 | 0.5
HIV-1 isolate 1508 (reverse transcriptase changes: V35I M41L K43Q A98S K102Q V108I V118I D121Y K122E I135T V179E Y181C M184V T200A L210W T215Y K223Q L228R V245M A272P K275R K277R P294T, study 121) | 1.4 | 2.3 | 2.2 | 4.6 | ≥ 400 | 62 | 15 | 1.2 | 5.2
HIV-1 isolate 946 (reverse transcriptase changes: T27A V35Q T39A D67N S68G K70R D123E I135T I142V K166R D177E V179I Y181C G196E E203D T215F K219E A272P K277R L283I A288T E297K, study 121) | 1.2 | 2.2 | 0.9 | 2.3 | ≥ 400 | 49 | 2.8 | 2.8 | 102
HIV-1 isolate 1488 (reverse transcriptase changes: V35T V60I K103N K122E I135T G196E Q207E, study 15) | 0.9 | 1.1 | 1.1 | 1 | 9 | 16 | 7.3 | 1.1 | 1.1

Fold change is the IC50 on the isolate divided by the IC50 on a reference virus; 1 = unchanged, higher = more resistant. Changes are given against the subtype B consensus. No active / inactive call. The values were gathered from many studies (numbered anew) with different assays, which the source does not name. Most viruses are clinical isolates; some are laboratory strains or clones with known resistance changes. Isolates with mixed residues are left out; stretches that were not sequenced show no change. Round top values that many isolates share are read here as limits; other very high values and 0.1 may be limits too.
